Experimental data from patent publication US20220356229A1 (published 2022).
Like-named read-outs stand apart in the source and are kept apart here.

Columns and labels:
[1] = molecular target: T1, SARS-CoV Spike protein (full length Spike, coupled to optically encoded beads) (SARS-CoV, UniProt P59594 14-1190); assay: multiplexed bead assay, flow cytometry
[2] = molecular target: T1, SARS-CoV Spike protein (full length …); assay: multiplexed bead assay, flow cytometry; remark: listed apart in the source
[3] = molecular target: SARS-CoV Spike protein (full length Spike, coupled to optically encoded beads) (SARS-CoV, UniProt P59594 14-1190); assay: multiplexed bead assay, flow cytometry; remark: listed apart in the source
[4] = molecular target: T2, SARS-CoV Spike protein (full length Spike, coupled to optically encoded beads) (SARS-CoV, UniProt P59594 14-1190); assay: multiplexed bead assay, flow cytometry; remark: listed apart in the source
[5] = molecular target: T2, SARS-CoV Spike protein (full length …); assay: multiplexed bead assay, flow cytometry; remark: listed apart in the source
[6] = molecular target: T3, SARS-CoV-2 Spike (S) protein, wild type, full length (SARS-CoV-2, UniProt P0DTC2 14-1273); assay: flow cytometry, CHO cells expressing full-length Spike
[7] = molecular target: T3, SARS-CoV-2 Spike (S) protein, wild …; assay: as above; remark: listed apart in the source
[8] = molecular target: T3, SARS-CoV-2 Spike (S) protein, wild …; assay: as above; remark: listed apart in the source
[9] = molecular target: T3, SARS-CoV-2 Spike (S) protein, wild …; assay: as above; remark: listed apart in the source

B1: anti-SARS-CoV-2 antibody 400 (antibody, V domains shown)
VH: QVQLVESGGGVVQPGRSLRLSCAASGFTFSSYGMHWVRQAPGKGLEWVAVISYDGSNKYYADSVKGRFTISRDNSKNTLYLQMNSLRAEDTAVYYCAKAIDILTGYGPGGMDVWGQGTTVTVSS
VL: QSVLTQPPSASGTPGQRVTISCSGSSSNIGSNYVYWYQQLPGTAPKLLIYRNNQRPSGVPDRFSGSKSGTSASLAISGLRSEDEADYYCAAWDDSLSGVVFGGGTKLTVL
median fluorescence, fold over isotype [1]: 1 fold over isotype | median fluorescence, fold over isotype [2]: 0.91 fold over isotype

B2: antibody 308 (antibody, V domains shown)
VH: QLQLQESGPGLVKPSETLSLTCSVSGGSISSSSYHWGWIRQPPGKGLEWIGSIYYSGSTYYNPSLKSRVTISVDTSKNQFSLKLRSVTAADTAVYYCAGLRVVITFGGVIPKGGAFDIWGQGTMVTVSS
VL: QSALTQPASVSGSPGQSITISCTGTSSDVGGYNYVSWYQQHPGKAPKLMIYDVSNRPSGVSNRFSGSKSGNTASLTISGLQAEDEADYYCSSYTSSSTVVFGGGTKLTVLG
median fluorescence intensity, fold over isotype control [3]: 22.8 fold over isotype

B3: anti-SARS-CoV-2 antibody 532 (antibody, V domains shown)
VH: EVQLVESGGGLVQPGGSLRLSCAASGIIVSSNYMSWVRQAPGKGLEWVSVIYSGGSTYYADSVKGRFTISRDNSKNTLYLQMNSLRAEDTAVYYCAREGLVGATLAFDYWGQGTLVTVSS
VL: not shown
fold over isotype control (median fluorescence) [4]: 0.8 fold over isotype | fold over isotype control (median fluorescence) [5]: 1 fold over isotype

B4: antibody 506 (antibody, V domains shown)
VH: QITLKESGPTLVKPTQTLTLTCTFSGFSLSTSGVGVGWIRQPPGKALEWLALIYWDDDKRYSPSLKSRLTITKDTSKNQVVLTMTNMDPVDTATYYCAHHSLSSIFDYWGQGTLVTVSS
VL: QSALTQPASVSGSPGQSITISCTGTSSDVGDYNYVSWYQQHPGKAPKLMIYEVSNRPSGVSNRFSGSKSGNTASLTISGLQAEDEADYYCSSYTSSSTVFGGGTKLTVLG
median fluorescence, fold over isotype control [6]: 30.1 fold over isotype | median fluorescence, fold over isotype control [7]: 19 fold over isotype | median fluorescence, fold over isotype control [8]: 30.8 fold over isotype | median fluorescence, fold over isotype control [9]: 22.3 fold over isotype
